{"source": "PubChem BioAssay AID504761 (Drosophila RNAi Screening Center, 2011)", "aim": "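Insect host genes that dengue virus relies on to spread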 (primary screen)", "cell system": "D.Mel-2 cells from Drosophila", "knock-down reagent": "long dsRNA against Drosophila genes", "conditions": "infection with dengue virus type 2; dose and infection time not stated", "measurement": "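Cells stained for dengue envelope protein and imaged; percent of infected cells per well on duplicate plates, ranked by infection, with stained nuclei counted for cell number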", "direction": "infection score: higher = more virus-infected cells", "rule for the call": "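Low infection ranks in the two replicates (chance level up to 0.065) followed by a retest with a 1.5-fold or larger significant decrease, p below 0.05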", "calls": "active = confirmed: knock-down lowers infection; inactive = not picked or not confirmed", "note": "In all, the deposit lists about 22,000 reagents; below is a random part of those that have a named target and a result. Over the whole deposit, 116 (0.52%) were called active. 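Calls depend on retest data that are not deposited; infection was ranked per plate without normalising between plates; the unit of the infection score is not given.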 Reagents against one gene are numbered here. Further read-outs or replicates are left out here. Not given: the amount of reagent, the time to read-out."}
{"gene": "CG2887", "reagent": 1, "infection score, replicate 1": 4, "activity call": "inactive"}
{"gene": "CG2887", "reagent": 2, "infection score, replicate 1": 4, "activity call": "inactive"}
{"gene": "Cyfip (Cytoplasmic FMR1 interacting protein)", "reagent": 1, "infection score, replicate 1": 35.9, "activity call": "inactive"}
{"gene": "CG7544", "reagent": 1, "infection score, replicate 1": 10.1, "activity call": "inactive"}
{"gene": "dmrt99B (doublesex-Mab related 99B)", "reagent": 1, "infection score, replicate 1": 0.85, "activity call": "inactive"}
{"gene": "dmrt99B (doublesex-Mab related 99B)", "reagent": 2, "infection score, replicate 1": 3.65, "activity call": "inactive"}

An excerpt taken from the entries so far, as a working copy:
{"gene": "CG7544", "reagent": 1, "infection score, replicate 1": 10.1, "activity call": "inactive"}
{"gene": "dmrt99B (doublesex-Mab related 99B)", "reagent": 1, "infection score, replicate 1": 0.85, "activity call": "inactive"}

More records follow.
{"gene": "Alg2 (ALG2, alpha-1,3/1,6-mannosyltransferase)", "reagent": 1, "infection score, replicate 1": 8.03, "activity call": "inactive"}
{"gene": "Tina-1 (Troponin C-akin-1)", "reagent": 1, "infection score, replicate 1": 14.1, "activity call": "inactive"}
{"gene": "Prps (Phosphoribosyl pyrophosphate synthetase)", "reagent": 1, "infection score, replicate 1": 0.85, "activity call": "inactive"}
{"gene": "Prps (Phosphoribosyl pyrophosphate synthetase)", "reagent": 2, "infection score, replicate 1": 3.11, "activity call": "inactive"}
{"gene": "Prps (Phosphoribosyl pyrophosphate synthetase)", "reagent": 3, "infection score, replicate 1": 2.41, "activity call": "inactive"}
{"gene": "Nop56", "reagent": 1, "infection score, replicate 1": 3.86, "activity call": "inactive"}
{"gene": "Mmp1 (Matrix metalloproteinase 1)", "reagent": 1, "infection score, replicate 1": 2.26, "activity call": "inactive"}
{"gene": "CR42546 (pseudo)", "reagent": 1, "infection score, replicate 1": 24.9, "activity call": "inactive"}
